Anti-infective test results gathered from many reports (values: NIAID ChemDB through PubChem).

Common to all: growth or infection tests; organism: HIV-1; read-out: fold resistance

Fold resistance: result on the changed form divided by that on wild type. Lines come from different laboratories, so protocols vary. Blank or dashed fields: not listed here.

compound	cell line	strain	read by	mutations	result
Cc1cccc(Nn2cnc(C)c2-c2ccccc2)c1	MT-4	SO561945 (RT K103N Y181C)	cytopathic effect / MTT	RT-K103N Y181C	0.767
CC(C)CN(C[C@@H](O)[C@H](Cc1ccccc1)NC(=O)OC1COC2OCCC12)S(=O)(=O)c1ccc2ncn(Cc3ccccc3)c2c1	MT-4	R13080	cytopathic effect / MTT	PR-L10F M46I M71V I84V	48
C=C(c1cc(C)cc(C)c1)c1c(CC)c(=O)[nH]c(=O)n1COC/C=C/c1ccccc1	MT-4	IIIB	cytopathic effect / MTT	RT-K103N Y181C	3330
Cc1ccc(C(C)S(=O)(=O)c2c(C)ccc[n+]2[O-])c(C)c1	CEM	-	cytopathic effect	RT-Y181C	14.7
Cc1cccc(Nn2c(-c3ccccc3)c(C(C)C)[nH]c2=S)c1	MT-4	SO561945 (RT K103N Y181C)	cytopathic effect / MTT	RT-K103N Y181C	<1
C=CCOCn1c(C(=C)c2cc(C)cc(C)c2)c(CC)c(=O)[nH]c1=O	MT-4	IIIB	cytopathic effect / MTT	RT-K103N Y181C	3330
Cn1c2ccccc2c2c1cc(C#N)c(=O)n2-c1ccc([N+](=O)[O-])cc1	MT-4	B	cytopathic effect / MTT	RT-K103N	1
C#CCOCn1c(C(=C)c2cc(C)cc(C)c2)c(CC)c(=O)[nH]c1=O	MT-4	IIIB	cytopathic effect / MTT	RT-Y181C	567
Cc1[nH]c(=S)n(Nc2cccc(Cl)c2)c1-c1cccc(C#N)c1	MT-4	SO561945 (RT K103N Y181C)	cytopathic effect / MTT	RT-K103N Y181C	<2.37
Cc1ccnc(SC(F)(F)c2nc3ccccc3o2)n1	-	Calanolide-resistant (RT T139I)	-	RT-T139I	6.65
Cc1ccc(-n2c(SCC(=O)Nc3ccc(S(N)(=O)=O)cc3Cl)nnc2C(F)(F)F)c2ccccc12	HeLa + HeLa-JC53	NL4-3	luciferase	RT-Y188L	62
N#Cc1cc2[nH]c3ccccc3c2n(-c2ccc([N+](=O)[O-])cc2)c1=O	MT-4	J	cytopathic effect / MTT	RT-I31L L100I K103N E138G Y181C L214F	5
Cc1cc(C#N)cc(C)c1Oc1nc(Nc2ccc(C#N)cc2)ncc1SCC(=O)NCC1CCCO1	MT-4	-	MTT	E138K	2.2
C=C(C)[C@@H]1CC[C@]2(C(=O)NCCCCCCCC(=O)N[C@@H](CC(C)C)[C@@H](O)CC(=O)O)CC[C@]3(C)[C@H](CC[C@@H]4[C@@]5(C)CC[C@H](O)C(C)(C)[C@@H]5CC[C@]43C)[C@@H]12	HeLa P4 + HeLa	LAI	syncytia	GP41-Q39H	~1
Cc1ccc(-n2c(SCC(=O)Nc3ccc(C)cc3Br)nnc2C(F)(F)F)cc1	HeLa + HeLa-JC53	NL4-3	luciferase	RT-K103N Y181C	2200
CCN1c2ncc(CCOc3cccc4c3ccc[n+]4[O-])cc2C(=O)Nc2c(C)cc(Cl)nc21	C8166	-	p24	RT-K103N Y181C	59.4
CCN1C(=O)c2c(O)c(=O)c(C(=O)NCc3ccc(F)c(Cl)c3F)cn2[C@H]2CCOC[C@H]21	MT-2	-	luminescence	E92Q/N155H	2.3
Cc1cc(C#N)cc(C(=O)c2cc(Cl)ccc2OCC(=O)Nc2cnc(S(N)(=O)=O)cc2C)c1	HeLa + HELA CD4+	HXB2	β-galactosidase	RT-G190A	~1
CCc1[nH]c(=S)n(Nc2cccc(C)c2)c1-c1ccccc1	MT-4	SO561945 (RT K103N Y181C)	cytopathic effect / MTT	RT-K103N Y181C	≤4.18
Cc1nnc(SCC(=O)Nc2ccccc2Br)n1-c1ccc(Cl)c2ccccc12	HeLa + HeLa-JC53	NL4-3	luciferase	RT-K103N Y181C	162
CC(C)CN(C[C@@H](O)[C@H](Cc1ccccc1)NC(=O)OC1COC2OCCNC12)S(=O)(=O)c1ccc2nc(N)oc2c1	MT-4	LAI	cytopathic effect / MTT	PR-L010F M046I M071V I084V	0.63
Cc1occc1C(=S)Nc1ccc(Cl)c(/C=N/OC(C)(C)C)c1	CEM + CEM-SS	4xAZT/L100I(RT-D67N K70R T215Y K219Q L100I)	cytopathic effect / XTT	RT-D67N K70R L100I T215Y K219Q	12.5
Cc1cc(C#N)cc(C)c1Oc1nc(Nc2ccc(C#N)cc2)ncc1SCC(=O)NC1CC1	MT-4	-	MTT	Y188L	12.2
C=CCO/N=C/c1cc(NC(=S)c2ccoc2C)ccc1Cl	CEM + CEM-SS	NL4-3	cytopathic effect / XTT	RT-K103N	971
C=CCNC(=O)CSc1cnc(Nc2ccc(C#N)cc2)nc1Oc1c(C)cc(C#N)cc1C	MT-4	-	MTT	F227L V106A	53.3
CNc1nc2ccc(S(=O)(=O)N(CC(C)C)C[C@@H](O)[C@H](Cc3ccccc3)NC(=O)O[C@H]3CO[C@H]4OCC[C@H]43)cc2o1	MT-4	LAI	cytopathic effect / MTT	PR-L010F M046I M071V I084V	1
CCOCn1c(Cc2ccccc2)c(C(C)C)c(=O)[nH]c1=O	CEM	IIIB	syncytia	RT-E138K	30
COc1ccnc2[nH]cc(C(=O)C(=O)N3CCN(C(=O)c4ccccc4)C[C@H]3C)c12	MT-2	LAI (gp120/gp41 M434I I595F) Recombinant	RT activity	GP120/GP41-M434I I595F	497.5
Cc1cc(C)cc(Nn2cnc(C)c2-c2ccccc2)c1	MT-4	SO561945 (RT K103N Y181C)	cytopathic effect / MTT	RT-K103N Y181C	<1.86
Cc1cc(OCCCS(N)(=O)=O)ccc1NC(=O)COc1ccc(Cl)cc1C(=O)c1cc(F)cc(C(F)(F)F)c1	HeLa + HELA CD4+	HXB2	β-galactosidase	RT-L100I	~1
CCOCn1c(Sc2cc(C)cc(C)c2)c(CC)c(=O)[nH]c1=S	CEM	IIIB	syncytia	RT-Y188H	2870
C=C(c1cc(C)cc(C)c1)c1c(CC)c(=O)[nH]c(=O)n1COC/C(C)=C/c1ccccc1	MT-4	IIIB	cytopathic effect / MTT	RT-Y181C	233.3
C=CCOc1cc(NC(=S)c2ccoc2C)ccc1OC	CEM + CEM-SS	CALO(RT-T139I)	cytopathic effect / XTT	RT-T139I	1.67
N#Cc1cc(Cl)cc(Oc2c(Br)ccc(CC(=O)Nc3ccc(S(N)(=O)=O)cc3Cl)c2F)c1	MT-4	-	-	L100I/K103N	1
O=S(=O)(Cc1ccccc1I)c1cccc[n+]1[O-]	CEM	IIIB	syncytia	RT-L100I	1.25
C=C(c1cc(C)cc(C)c1)c1c(CC)c(=O)[nH]c(=O)n1COCC	MT-4	IIIB	cytopathic effect / MTT	RT-K103N Y181C	828.6
CCN1C(=O)c2c(O)c(=O)c(C(=O)NCc3ccc(F)c(Cl)c3F)cn2[C@H]2CCO[C@H]21	MT-2	-	luminescence	G140S/Q148R	1.9
Cc1cc(S(N)(=O)=O)ccc1NC(=O)COc1ccc(Cl)cc1C(=O)c1cccc(C#N)c1	HeLa + HELA CD4+	HXB2	β-galactosidase	RT-G190E	~1
Cc1ccc2c(C)cc(C)c(-n3c(SCC(=O)Nc4ccc(S(N)(=O)=O)cc4Cl)nnc3C(F)(F)F)c2n1	HeLa + HeLa-JC53	NL4-3	luciferase	RT-Y188L	4
CC(C)=CCN1Cc2cc(Cl)cc3[nH]c(=O)n(c23)C[C@@H]1C	MT-4	IIIB	cytopathic effect / XTT	RT-Y181C	496
CC(C)[C@H](NC(=O)OCc1ccccn1)C(=O)N[C@@H](Cc1ccccc1)[C@@H](O)C[C@H](Cc1ccccc1)NC(=O)OCc1cccnc1	MT-4	NL4-3	p24	PR-L10R M46I L63P V82T I84V	3.75
CC(C)CN(C[C@@H](O)[C@H](Cc1ccccc1)NC(=O)OC1COC2OCCC12)S(=O)(=O)c1ccc2nc(N)oc2c1	MT-4	LAI	cytopathic effect / MTT	PR-L010F M046I M071V I084V	1.3
Cc1ccc(C2CC2)c(-c2ccc3c(c2C)CCCO3)c1[C@H](OC(C)(C)C)C(=O)O	MT-4	NL4-3	luminescence	NRTI/NNRTI resistant K103N/Y181C	1
CCC(=O)c1ccc(F)c([C@@H]2C[C@@H]2NC(=O)Nc2ccc(C#N)cn2)c1O	TZM-bl	LAI	β-galactosidase / luminescence	NNRTI-resistant (RT F227L)	1.3
Cc1cc(C#N)cc(C)c1Oc1nc(Nc2ccc(C#N)cc2)ncc1SCC(=O)Nc1ccc(S(C)(=O)=O)cc1	MT-4	-	MTT	Y181C	14.4
FC(F)(Sc1ncccn1)c1nc2ccccc2o1	-	CALO	-	RT-T139I	1
Cc1ccc(C)c(C(Cl)S(=O)(=O)c2cc(C)cc[n+]2[O-])c1	CEM	-	cytopathic effect	RT-Y181C	>8.3
CC(C)c1c(Sc2ccccc2)n(COCc2ccccc2)c(=S)[nH]c1=O	CEM	IIIB	syncytia	RT-E138K	12.5
C#CCNC(=O)CSc1cnc(Nc2ccc(C#N)cc2)nc1Oc1c(C)cc(C#N)cc1C	MT-4	-	MTT	F227L V106A	51.5
Cc1cncc(C)c1OCC(=O)N[C@@H](Cc1ccccc1)[C@H](O)CN(CC(C)C)S(=O)(=O)c1ccc2nc(N)oc2c1	MT-4	LAI	cytopathic effect / MTT	PR-L010F M046I M071V I084V	13
Cc1cc(C#N)cc(C)c1Oc1nc(Nc2ccc(C#N)cc2)ncc1SCC(=O)NCCN1CCN(C(=O)OC(C)(C)C)CC1	MT-4	-	MTT	Y181C	4.2
Cc1ccc(C)c(CSc2c(Cl)ccc[n+]2[O-])c1	CEM	-	cytopathic effect	RT-K103N	96
Cc1ccc(C)c(CS(=O)(=O)c2cccc[n+]2[O-])c1	CEM	IIIB	syncytia	RT-K103N	2.07
Cc1cc(C)c(CS(=O)c2cccc[n+]2[O-])c(C)c1	CEM	-	cytopathic effect	RT-Y181C	4.16
Cc1occc1C(=S)Nc1ccc(Cl)c(C(=O)OC(C)C)c1	CEM + CEM-SS	NL4-3	cytopathic effect / XTT	RT-K103N	183
COc1ccc(C)cc1CS(=O)(=O)c1cccc[n+]1[O-]	CEM	IIIB	syncytia	RT-K103N	7.5
CCN1C(=O)c2c(O)c(=O)c(C(=O)NCc3c(F)cc(F)cc3F)cn2[C@H]2COC[C@H]21	MT-2	-	luminescence	N155H/Q148R	17.7
Cc1occc1C(=S)Nc1ccc(Cl)c(C(=O)OCC2CC2)c1	CEM + CEM-SS	NL4-3	cytopathic effect / XTT	RT-Y181C	4
CCc1c(Sc2ccccc2)n(COCc2ccccc2)c(=S)[nH]c1=O	CEM	IIIB TIBO R82913-resistant (RT K103N)	syncytia	RT-K103N	217
Cc1cc(S(N)(=O)=O)ccc1NC(=O)COc1ccccc1C(=O)c1cc(Cl)cc(C#N)c1	HeLa MAGI + HeLa	-	β-galactosidase	RT-K103N P225H	10
Cc1cc(C#N)cc(C)c1Oc1nc(Nc2ccc(C#N)cc2)ncc1SCC(=O)NC1CCN(C(=O)OC(C)(C)C)CC1	MT-4	-	MTT	RES056	75.1
Cc1cc(Cl)cc(C(=O)c2cc(Cl)ccc2OCC(=O)Nc2ccc(S(N)(=O)=O)cc2C)c1	MT-4	Nevirapine-resistant (RT Y181C)	cytopathic effect / propidium iodide	RT-Y181C	~0.1
COCCNC(=O)CSc1cnc(Nc2ccc(C#N)cc2)nc1Oc1c(C)cc(C#N)cc1C	MT-4	-	MTT	F227L V106A	40
Cc1ccc2c(C)cccc2c1-n1c(C)nnc1SCC(=O)Nc1ccccc1Br	HeLa + HeLa-JC53	NL4-3	luciferase	RT-Y188L	1100

For reference, 9 entries again:

compound | cell line | strain | read by | mutations | result
C=CCNC(=O)CSc1cnc(Nc2ccc(C#N)cc2)nc1Oc1c(C)cc(C#N)cc1C | MT-4 | - | MTT | F227L V106A | 53.3
COc1ccnc2[nH]cc(C(=O)C(=O)N3CCN(C(=O)c4ccccc4)C[C@H]3C)c12 | MT-2 | LAI (gp120/gp41 M434I I595F) Recombinant | RT activity | GP120/GP41-M434I I595F | 497.5
Cc1cncc(C)c1OCC(=O)N[C@@H](Cc1ccccc1)[C@H](O)CN(CC(C)C)S(=O)(=O)c1ccc2nc(N)oc2c1 | MT-4 | LAI | cytopathic effect / MTT | PR-L010F M046I M071V I084V | 13
Cn1c2ccccc2c2c1cc(C#N)c(=O)n2-c1ccc([N+](=O)[O-])cc1 | MT-4 | B | cytopathic effect / MTT | RT-K103N | 1
CCN1C(=O)c2c(O)c(=O)c(C(=O)NCc3ccc(F)c(Cl)c3F)cn2[C@H]2CCOC[C@H]21 | MT-2 | - | luminescence | E92Q/N155H | 2.3
C=CCOc1cc(NC(=S)c2ccoc2C)ccc1OC | CEM + CEM-SS | CALO(RT-T139I) | cytopathic effect / XTT | RT-T139I | 1.67
CC(C)CN(C[C@@H](O)[C@H](Cc1ccccc1)NC(=O)OC1COC2OCCC12)S(=O)(=O)c1ccc2ncn(Cc3ccccc3)c2c1 | MT-4 | R13080 | cytopathic effect / MTT | PR-L10F M46I M71V I84V | 48
CCc1[nH]c(=S)n(Nc2cccc(C)c2)c1-c1ccccc1 | MT-4 | SO561945 (RT K103N Y181C) | cytopathic effect / MTT | RT-K103N Y181C | ≤4.18
Cc1cc(C#N)cc(C)c1Oc1nc(Nc2ccc(C#N)cc2)ncc1SCC(=O)Nc1ccc(S(C)(=O)=O)cc1 | MT-4 | - | MTT | Y181C | 14.4